Data on 1 substance can be found in publication PMC4518248, “A potent broad-spectrum protective human monoclonal antibody crosslinking two haemagglutinin monomers of influenza A virus” (2015).

In this test the target is recombinant H7 HA ectodomain of A/Anhui/1/2013 (H7N9) (influenza A virus A/Anhui/1/2013 (H7N9)). The test is described as follows: crystal structure; […].

With “recombinant H7 HA ectodomain of A/Anhui/1/2013 (H7N9) (domain or fragment)”, the stoichiometry N was found to be 3.

One may read the stoichiometry N as the number of molecules, sites or subunits per partner or assembly.
